1 substance from PMC12501226, “Development of an ultrahigh affinity, trimeric ACE2 biologic as a universal SARS-CoV-2 antagonist” (2025) can be followed below.

The target in this assay is SARS-CoV-2 spike HexaPro protein (SARS-CoV-2).

Values joined by “and” are separate entries in the source; they are usually repeats but may differ in a detail not shown here. Identical values can stand only once.

“T^[change]^D_([change]) ([change] with [change]-V'37C in the trimerization domain and [change]-[chan (from UniProt Q9BYF1 18-615)”: the Kd (as a rule, a measure of binding affinity in units of concentration) was 850 pM and 120 pM.
